{"source": "patent US20230277714A1", "about": "“METHOD FOR SANITIZING THE AIR” (The Procter & Gamble Company, priority 2022, published 2023)", "key": {"[1]": {"assay": "Total TEG in air as measured by GC/MS, TEG pipetted onto hotplate @ 250° C."}, "[2]": {"assay": "Total mass of 0.1-3 μm liquid particles in air, TEG pipetted onto hotplate @ 250° C., with or without HEPA filtration"}, "[3]": {"assay": "Total TEG in the air by GC/MS, sanitizing system with heated or unheated inlet air and filtration variants", "settings": "for Total TEG in the air as measured by GC/MS: no in-line filtration"}, "[4]": {"assay": "Total mass of 0.1-3 μm liquid particles in air, TEG dosed from syringe pump onto hotplate @ 33 mg/min", "settings": "syringe pump 33 mg/min"}}, "note": "Where “and” joins values, the source holds several entries; their conditions need not be identical. Identical values can stand only once."}
{"smiles": "OCCOCCOCCO", "note": "[TEG, triethylene glycol]", "values": [{"measurement": "Total TEG in air as measured by GC/MS", "setting": "[1]; Post-Filtration", "result": 3.85, "unit": "mg/m3"}, {"measurement": "Total TEG in air as measured by GC/MS", "setting": "[1]; Pre-Filtration", "result": 34.42, "unit": "mg/m3"}, {"measurement": "Total mass of 0.1-3 μm diameter liquid particles in air", "setting": "[2]; Nil Filter, After 10 min of filtration Time = 21 min", "result": "0.25 mg/m^3 and 0.22 mg/m^3 and 0.23 mg/m^3"}, {"measurement": "Total mass of 0.1-3 μm diameter liquid particles in air", "setting": "[2]; Nil Filter, After 15 min of filtration Time = 26 min", "result": "0.17 mg/m^3 and 0.15 mg/m^3 and 0.16 mg/m^3"}, {"measurement": "Total mass of 0.1-3 μm diameter liquid particles in air", "setting": "[2]; Nil Filter, Filter powered on Time = 11 min", "result": "0.83 mg/m^3 and 0.80 mg/m^3 and 0.68 mg/m^3 and 0.72 mg/m^3"}, {"measurement": "Total mass of 0.1-3 μm diameter liquid particles in air", "setting": "[2]; Nil Filter, Pre-Filter Time = 7 min", "result": "1.36 mg/m^3 and 1.25 mg/m^3 and 1.17 mg/m^3 and 1.22 mg/m^3"}, {"measurement": "Total mass of 0.1-3 μm diameter liquid particles in air", "setting": "[2]; Post-Filtration", "result": 0.008, "unit": "mg/m3"}, {"measurement": "Total mass of 0.1-3 μm diameter liquid particles in air", "setting": "[2]; Pre-Filtration", "result": 1.12, "unit": "mg/m3"}, {"measurement": "Total mass of 0.1-3 μm diameter liquid particles in air", "setting": "[2]; With Filter, After 10 min of filtration Time = 21 min", "result": "0.02 mg/m^3 and 0.03 mg/m^3"}, {"measurement": "Total mass of 0.1-3 μm diameter liquid particles in air", "setting": "[2]; With Filter, After 15 min of filtration Time = 26 min", "result": "0.005 mg/m^3 and 0.006 mg/m^3 and 0.008 mg/m^3"}, {"measurement": "Total mass of 0.1-3 μm diameter liquid particles in air", "setting": "[2]; With Filter, Filter powered on Time = 11 min", "result": "0.48 mg/m^3 and 0.59 mg/m^3 and 0.71 mg/m^3 and 0.70 mg/m^3 and 0.91 mg/m^3"}, {"measurement": "Total mass of 0.1-3 μm diameter liquid particles in air", "setting": "[2]; With Filter, Pre-Filter Time = 7 min", "result": "1.17 mg/m^3 and 1.15 mg/m^3 and 1.68 mg/m^3 and 0.90 mg/m^3 and 1.34 mg/m^3 and 1.13 mg/m^3"}, {"measurement": "Total TEG in the air as measured by GC/MS", "setting": "[3]; Fan inlet air at 70 F. (unheated), after 10 min of HEPA filtration, Time = 44 min", "result": 1.75, "unit": "mg/m^3"}, {"measurement": "Total TEG in the air as measured by GC/MS", "setting": "[3]; Fan inlet air at 70 F. (unheated), before HEPA filtration, Time = 5 min", "result": 15.54, "unit": "mg/m^3"}, {"measurement": "Total TEG in the air as measured by GC/MS", "setting": "[3]; Fan inlet air at 70 F. (unheated), before HEPA filtration, Time = 15 min", "result": 10.88, "unit": "mg/m^3"}, {"measurement": "Total TEG in the air as measured by GC/MS", "setting": "[3]; Fan inlet air at 70 F. (unheated), before HEPA filtration, Time = 30 min", "result": 1.96, "unit": "mg/m^3"}, {"measurement": "Total TEG in the air as measured by GC/MS", "setting": "[3]; Fan inlet air at 150 F. (heated), after 10 min of HEPA filtration, Time = 44 min", "result": 2.62, "unit": "mg/m^3"}, {"measurement": "Total TEG in the air as measured by GC/MS", "setting": "[3]; Fan inlet air at 150 F. (heated), before HEPA filtration, Time = 5 min", "result": 34.05, "unit": "mg/m^3"}, {"measurement": "Total TEG in the air as measured by GC/MS", "setting": "[3]; Fan inlet air at 150 F. (heated), before HEPA filtration, Time = 15 min", "result": 17.29, "unit": "mg/m^3"}, {"measurement": "Total TEG in the air as measured by GC/MS", "setting": "[3]; Fan inlet air at 150 F. (heated), before HEPA filtration, Time = 30 min", "result": 4.09, "unit": "mg/m^3"}, {"measurement": "Total TEG in the air", "setting": "[3]; Heated Inlet Air, No In-Line Filtration, Off-line RABBIT AIR HEPA filter running continuously during test, Timepoint 0 min", "result": 0.00, "unit": "mg/m^3"}, {"measurement": "Total TEG in the air", "setting": "[3]; Heated Inlet Air, No In-Line Filtration, Off-line RABBIT AIR HEPA filter running continuously during test, Timepoint 5 min", "result": 17.01, "unit": "mg/m^3"}, {"measurement": "Total TEG in the air", "setting": "[3]; Heated Inlet Air, No In-Line Filtration, Off-line RABBIT AIR HEPA filter running continuously during test, Timepoint 15 min", "result": 4.86, "unit": "mg/m^3"}, {"measurement": "Total TEG in the air", "setting": "[3]; Heated Inlet Air, No In-Line Filtration, Off-line RABBIT AIR HEPA filter running continuously during test, Timepoint 30 min", "result": 2.77, "unit": "mg/m^3"}, {"measurement": "Total TEG in the air", "setting": "[3]; Heated Inlet Air, No In-Line Filtration, Off-line RABBIT AIR HEPA filter running continuously during test, Timepoint 44 min", "result": 3.16, "unit": "mg/m^3"}, {"measurement": "Total TEG in the air", "setting": "[3]; Heated Inlet Air, No In-line Filtration, Off-line, Timepoint 0 min", "result": 0.00, "unit": "mg/m^3"}, {"measurement": "Total TEG in the air", "setting": "[3]; Heated Inlet Air, With In-Line Nonwoven filter, Off-line, Timepoint 0 min", "result": 0.00, "unit": "mg/m^3"}, {"measurement": "Total TEG in the air", "setting": "[3]; Heated Inlet Air, With In-Line Nonwoven filter, Off-line, Timepoint 5 min", "result": 6.27, "unit": "mg/m^3"}, {"measurement": "Total TEG in the air", "setting": "[3]; Heated Inlet Air, With In-Line Nonwoven filter, Off-line, Timepoint 15 min", "result": 7.84, "unit": "mg/m^3"}, {"measurement": "Total TEG in the air", "setting": "[3]; Heated Inlet Air, With In-Line Nonwoven filter, Off-line, Timepoint 30 min", "result": 4.20, "unit": "mg/m^3"}, {"measurement": "Total TEG in the air", "setting": "[3]; Heated Inlet Air, With In-Line Nonwoven filter, Off-line, Timepoint 44 min", "result": 3.30, "unit": "mg/m^3"}, {"measurement": "Total TEG in the air", "setting": "[3]; Unheated Inlet Air, No In-Line Filtration, Off-line RABBIT AIR HEPA filter running continuously during test, Timepoint 0 min", "result": 0.00, "unit": "mg/m^3"}, {"measurement": "Total TEG in the air", "setting": "[3]; Unheated Inlet Air, No In-Line Filtration, Off-line RABBIT AIR HEPA filter running continuously during test, Timepoint 5 min", "result": 10.22, "unit": "mg/m^3"}, {"measurement": "Total TEG in the air", "setting": "[3]; Unheated Inlet Air, No In-Line Filtration, Off-line RABBIT AIR HEPA filter running continuously during test, Timepoint 15 min", "result": 0.49, "unit": "mg/m^3"}, {"measurement": "Total TEG in the air", "setting": "[3]; Unheated Inlet Air, No In-Line Filtration, Off-line RABBIT AIR HEPA filter running continuously during test, Timepoint 30 min", "result": 0.41, "unit": "mg/m^3"}, {"measurement": "Total TEG in the air", "setting": "[3]; Unheated Inlet Air, No In-Line Filtration, Off-line RABBIT AIR HEPA filter running continuously during test, Timepoint 44 min", "result": 0.00, "unit": "mg/m^3"}, {"measurement": "Total TEG in the air", "setting": "[3]; Unheated Inlet Air, No In-line Filtration, Off-line, Timepoint 0 min", "result": 0.00, "unit": "mg/m^3"}, {"measurement": "Total TEG in the air", "setting": "[3]; Unheated Inlet Air, With In-Line Nonwoven filter, Off-line, Timepoint 0 min", "result": 0, "unit": "mg/m^3"}, {"measurement": "Total TEG in the air", "setting": "[3]; Unheated Inlet Air, With In-Line Nonwoven filter, Off-line, Timepoint 5 min", "result": 9.44, "unit": "mg/m^3"}, {"measurement": "Total TEG in the air", "setting": "[3]; Unheated Inlet Air, With In-Line Nonwoven filter, Off-line, Timepoint 15 min", "result": 3.03, "unit": "mg/m^3"}, {"measurement": "Total TEG in the air", "setting": "[3]; Unheated Inlet Air, With In-Line Nonwoven filter, Off-line, Timepoint 30 min", "result": 0.10, "unit": "mg/m^3"}, {"measurement": "Total TEG in the air", "setting": "[3]; Unheated Inlet Air, With In-Line Nonwoven filter, Off-line, Timepoint 44 min", "result": 0.06, "unit": "mg/m^3"}, {"measurement": "Total mass of 0.1-3 μm diameter liquid particles in air", "setting": "[4]; Nil Filter, After 10 min of filtration", "result": 2.36, "unit": "mg/m^3"}, {"measurement": "Total mass of 0.1-3 μm diameter liquid particles in air", "setting": "[4]; Nil Filter, After 15 min of filtration", "result": 1.76, "unit": "mg/m^3"}, {"measurement": "Total mass of 0.1-3 μm diameter liquid particles in air", "setting": "[4]; Nil Filter, After 20 min of filtration", "result": 0.81, "unit": "mg/m^3"}, {"measurement": "Total mass of 0.1-3 μm diameter liquid particles in air", "setting": "[4]; Nil Filter, Pre-Filter Time = 30 min", "result": 2.94, "unit": "mg/m^3"}, {"measurement": "Total mass of 0.1-3 μm diameter liquid particles in air", "setting": "[4]; With Filter, After 10 min of filtration", "result": "0.25 mg/m^3 and 0.33 mg/m^3"}, {"measurement": "Total mass of 0.1-3 μm diameter liquid particles in air", "setting": "[4]; With Filter, After 15 min of filtration", "result": "0.02 mg/m^3 and 0.03 mg/m^3"}, {"measurement": "Total mass of 0.1-3 μm diameter liquid particles in air", "setting": "[4]; With Filter, After 20 min of filtration", "result": "0.003 mg/m^3 and 0.005 mg/m^3"}, {"measurement": "Total mass of 0.1-3 μm diameter liquid particles in air", "setting": "[4]; With Filter, Pre-Filter Time = 30 min", "result": "3.47 mg/m^3 and 3.70 mg/m^3"}]}
